Where “and” joins values, the source holds several entries; their conditions need not be identical. Identical values can stand only once.
Tested on: T. cruzi Tulahuen lacZ strain
Test: Anti-T. cruzi activity, intracellular amastigotes in HFF-1 cells, beta-galactosidase/CPRG readout
Settings: selectivity index, HFF-1 cytotoxicity vs T. cruzi activity

| SMILES | SI |
| --- | --- |
| CCCCc1ccc(C(=O)[O][Mg][O]C(=O)c2ccc(CCCC)cn2)nc1 [Compound 2, magnesium complex of fusaric acid] | 4.80–5.25 and > 5.25 |
| CSC12CC3=CC=CC(OC(C)=O)C3N1C(=O)C1(SC)CC3=CC=CC(OC(C)=O)C3N1C2=O (centres unmarked) [Compound 4, haematocin] | 4.80–5.25 and > 4.80 |
| CCCCc1ccc(C(=O)O)nc1 [Compound 5, fusaric acid] | > 3 and > 3.06 |
| C[C@@H](O)CCc1ccc(C(=O)O)nc1 [Compound 7, (R)‐fusarinolic acid] | > 1.06 |
| CC(C)=CCCC(C)(O)C1CCC(C)(O)C1C (centres unmarked) [Compound 8, cyclonerodiol] | > 3 and > 2.81 |

— PMC12715984, “Co‐cultivation and Medium Optimization: A Strategy for Discovering Fungal‐derived Protease Inhibitors” (Chemistry & Biodiversity, 2025)
